The test deals with PltC of the PltC typhoid toxin (PltC-PltA-CdtB-His6) (Salmonella enterica serovar Typhi). The test can be described thus: crystal structure.

As for “PltC of the PltC typhoid toxin (PltC-PltA-CdtB-His6) (natural protein)”, the stoichiometry N came to 5.

Values taken from paper PMC8749428, “Molecular Insights into the Assembly and Functional Diversification of Typhoid Toxin” (2022).
